From patent US20260176683A1 (RIJKSUNIVERSITEIT GRONINGEN, published 2026)
Several values for one entry are separate records, joined by “and”; a condition that tells them apart may be missing. Identical values can stand only once.

Tests used:
C-reactive protein = target: T1, C-reactive protein (UniProt P02741 19-224)
T1 sequence: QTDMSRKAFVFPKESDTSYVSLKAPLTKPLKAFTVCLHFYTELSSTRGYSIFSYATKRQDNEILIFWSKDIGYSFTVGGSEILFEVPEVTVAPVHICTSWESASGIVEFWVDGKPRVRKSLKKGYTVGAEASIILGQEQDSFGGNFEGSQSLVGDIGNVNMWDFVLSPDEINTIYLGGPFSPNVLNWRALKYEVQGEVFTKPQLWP

Streptavidin = Streptavidin (UniProt P22629 37-163)
Bovine Thrombin = Bovine Thrombin (bovine, UniProt P00735 318-625)

B1:  (other)
chain 1: MHHHHHHENLYFQSSGGIFTKEDLINLKLYVRKGLSLPTRQDEVEAYLGYKKIDVAGLEPKDIKLLFDEIHNHALNWNDVEQAVLQQSLDLDIAAKNIISTGNEIINLINQMPITLRVKTLLGDITDKQLENITYESADHEVASALKDILDDMKGDINRHQTTTENVRKKVSDYRITLTGGELSSGDKVNGLEPQVKTKYDLMEKSNMRKSIKELDEKIKEKRQRIEQLKKDYDKFVGLSFTGAIGGIIAMAITGGIFGAKAENARKEKNALISEVAELESKVSSQRALQTALEALSLSFSDIGIRMVDAESALNHLDFMWLSVLNQITESQIQFAMINNALRLTSFVNKFQQVITPWQSVGDSARQLVDIFDEAIKEYKKVYG
chain 2: MSYYHHHHHHDYDIPTTENLYFQGAEISTFPHSGLSYPDINFKIFSQGVKNISHLAQFKTTGVEVLQEKALRVSLYSQRLDVIVRESLSSLQVKLENTLALTYFTTLEEIDEALISQDIDEESKSEMRKERINIIKNLSNDITQLKQLFIEKTELLDKSSSDLHNVVIIEGTDKVLQAEQLRQKQLTEDIATKELERKEIEKKRDKIIEALDVIREHNLVDAFKDLIPTGENLSELDLAKPEIELLKQSLEITKKLLGQFSEGLKYIDLTDARKKLDNQIDTASTRLTELNRQLEQSEKLIAGVNAIIKIDQEKSAVVVEAEKLSRAWHIFIHEITALQGTSLNEVELSKPLIKQQIYLESLIKQLI
With B1 the koff (C-reactive protein) was 27 s⁻¹ and 36.8 s⁻¹, the kon (C-reactive protein) was 3.09e+08 M⁻¹ s⁻¹ and the koff (Streptavidin) was 13.3 s⁻¹. It also gave a kon (Streptavidin) of 4.73e+08 M⁻¹ s⁻¹, a koff (Bovine Thrombin) of 121 s⁻¹ and a kon (Bovine Thrombin) of 1.51e+08 M⁻¹ s⁻¹.
